As a reminder, the IC50 is the point on the concentration scale where inhibition reaches its midpoint.

A short description of assay [1]: Antagonist activity at rat alpha6alpha3beta4 nAChR expressed in Xenopus laevis oocytes assessed as inhibition of Ach-induced response at -70 mV holding potential by two electrode voltage-clamp assay.
Assay [2] in a line: Antagonist activity at mouse alpha1beta1epsilondelta nAChR expressed in Xenopus laevis oocytes assessed as inhibition of Ach-induced response at -70 mV holding potential by two electrode voltage-clamp assay.

Where only a bound is given, the exact number is not on record here.

Regarding `CC[C@H](C)[C@@H]1NC(=O)[C@H](CCCNC(=N)N)NC(=O)[C@H](CCCNC(=N)N)NC(=O)[C@@H](NC(=O)[C@H](Cc2ccc(O)cc2)NC(=O)[C@H](CCCNC(=N)N)NC(=O)[C@H](CCCNC(=N)N)NC(=O)[C@H](CCCNC(=N)N)NC(=O)[C@H](CCCNC(=N)N)NC(=O)[C@H](CC(=O)O)NC(=O)[C@H](Cc2ccc(O)cc2)NC(=O)[C@@H]2CCCN2C(=O)[C@H](CO)NC(=O)[C@H](CCCNC(=N)N)NC(=O)[C@H](C)NC(=O)[C@H](Cc2ccc(O)cc2)NC(=O)[C@H](CCCNC(=N)N)NC(=O)CNC(=O)[C@H](CO)NC(=O)[C@H](CO)NC(=O)[C@H](CCCNC(=N)N)NC(=O)[C@H](C)NC(=O)[C@@H](N)[C@@H](C)O)CSSC[C@@H](C(=O)N[C@H](C(=O)O)C(C)C)NC(=O)[C@H](C)NC(=O)[C@H](CC(=O)O)NC(=O)[C@H]([C@@H](C)O)NC1=O`, the IC50 in assay [1] is above 10000 nM; in assay [2], 1290 nM.
The matching figures for `CC[C@H](C)[C@H](NC(=O)[C@H](CCCNC(=N)N)NC(=O)[C@H](CCCNC(=N)N)NC(=O)[C@H](C)NC(=O)[C@H](Cc1ccc(O)cc1)NC(=O)[C@H](CCCNC(=N)N)NC(=O)[C@H](CCCNC(=N)N)NC(=O)[C@H](CCCNC(=N)N)NC(=O)[C@H](CCCNC(=N)N)NC(=O)[C@H](CC(=O)O)NC(=O)[C@H](Cc1ccc(O)cc1)NC(=O)[C@@H]1CCCN1C(=O)[C@H](CO)NC(=O)[C@H](CCCNC(=N)N)NC(=O)[C@@H]1CSSC[C@H](NC(=O)[C@@H](N)[C@@H](C)O)C(=O)N[C@@H](CCCNC(=N)N)C(=O)N[C@@H](CO)C(=O)N[C@@H](CO)C(=O)NCC(=O)N[C@@H](CCCNC(=N)N)C(=O)N[C@@H](Cc2ccc(O)cc2)C(=O)N1)C(=O)N[C@H](C(=O)N[C@@H](CC(=O)O)C(=O)N[C@@H](C)C(=O)N[C@@H](C)C(=O)N[C@H](C(=O)O)C(C)C)[C@@H](C)O`: 8680 nM and 2490 nM.
In the case of `CC[C@H](C)[C@H](NC(=O)[C@H](CCCNC(=N)N)NC(=O)[C@H](CCCNC(=N)N)NC(=O)[C@H](C)NC(=O)[C@H](Cc1ccc(O)cc1)NC(=O)[C@H](CCCNC(=N)N)NC(=O)[C@H](CCCNC(=N)N)NC(=O)[C@H](CCCNC(=N)N)NC(=O)[C@H](CCCNC(=N)N)NC(=O)[C@H](CC(=O)O)NC(=O)[C@H](Cc1ccc(O)cc1)NC(=O)[C@@H]1CCCN1C(=O)[C@H](CO)NC(=O)[C@H](CCCNC(=N)N)NC(=O)[C@H](CO)NC(=O)[C@H](Cc1ccc(O)cc1)NC(=O)[C@H](CCCNC(=N)N)NC(=O)CNC(=O)[C@H](CO)NC(=O)[C@H](CO)NC(=O)[C@H](CCCNC(=N)N)NC(=O)[C@H](CO)NC(=O)[C@@H](N)[C@@H](C)O)C(=O)N[C@H](C(=O)N[C@@H](CC(=O)O)C(=O)N[C@@H](C)C(=O)N[C@@H](C)C(=O)N[C@H](C(=O)O)C(C)C)[C@@H](C)O`, the values for the IC50 in assay [1] and in assay [2] were above 10000 nM and 2370 nM, respectively.
The like results for `CC[C@H](C)[C@H](NC(=O)[C@H](CCCNC(=N)N)NC(=O)[C@H](CCCNC(=N)N)NC(=O)[C@@H]1CSSC[C@H](NC(=O)[C@H](Cc2ccc(O)cc2)NC(=O)[C@H](CCCNC(=N)N)NC(=O)CNC(=O)[C@H](CO)NC(=O)[C@H](CO)NC(=O)[C@H](CCCNC(=N)N)NC(=O)[C@H](C)NC(=O)[C@@H](N)[C@@H](C)O)C(=O)N[C@@H](CCCNC(=N)N)C(=O)N[C@@H](CO)C(=O)N2CCC[C@H]2C(=O)N[C@@H](Cc2ccc(O)cc2)C(=O)N[C@@H](CC(=O)O)C(=O)N[C@@H](CCCNC(=N)N)C(=O)N[C@@H](CCCNC(=N)N)C(=O)N[C@@H](CCCNC(=N)N)C(=O)N[C@@H](CCCNC(=N)N)C(=O)N[C@@H](Cc2ccc(O)cc2)C(=O)N1)C(=O)N[C@H](C(=O)N[C@@H](CC(=O)O)C(=O)N[C@@H](C)C(=O)N[C@@H](C)C(=O)N[C@H](C(=O)O)C(C)C)[C@@H](C)O` were, in that order, 6190 nM and 1970 nM.
Consider `CC[C@H](C)[C@H](NC(=O)[C@H](CCCNC(=N)N)NC(=O)[C@H](CCCNC(=N)N)NC(=O)[C@H](CO)NC(=O)[C@H](Cc1ccc(O)cc1)NC(=O)[C@H](CCCNC(=N)N)NC(=O)[C@H](CCCNC(=N)N)NC(=O)[C@H](CCCNC(=N)N)NC(=O)[C@H](CCCNC(=N)N)NC(=O)[C@H](CC(=O)O)NC(=O)[C@H](Cc1ccc(O)cc1)NC(=O)[C@@H]1CCCN1C(=O)[C@H](CO)NC(=O)[C@H](CCCNC(=N)N)NC(=O)[C@H](CO)NC(=O)[C@H](Cc1ccc(O)cc1)NC(=O)[C@H](CCCNC(=N)N)NC(=O)CNC(=O)[C@H](CO)NC(=O)[C@H](CO)NC(=O)[C@H](CCCNC(=N)N)NC(=O)[C@H](CO)NC(=O)[C@@H](N)[C@@H](C)O)C(=O)N[C@H](C(=O)N[C@@H](CC(=O)O)C(=O)N[C@@H](C)C(=O)N[C@@H](CO)C(=O)N[C@H](C(=O)O)C(C)C)[C@@H](C)O`, for which the IC50 in assay [1] turned out to be 7340 nM; in assay [2], 2730 nM.
Take `CC[C@H](C)[C@@H]1NC(=O)[C@H](CCCNC(=N)N)NC(=O)[C@H](CCCNC(=N)N)NC(=O)[C@H](CO)NC(=O)[C@H](Cc2ccc(O)cc2)NC(=O)[C@H](CCCNC(=N)N)NC(=O)[C@H](CCCNC(=N)N)NC(=O)[C@H](CCCNC(=N)N)NC(=O)[C@H](CCCNC(=N)N)NC(=O)[C@H](CC(=O)O)NC(=O)[C@H](Cc2ccc(O)cc2)NC(=O)[C@@H]2CCCN2C(=O)[C@H](CO)NC(=O)[C@H](CCCNC(=N)N)NC(=O)[C@H](CO)NC(=O)[C@H](Cc2ccc(O)cc2)NC(=O)[C@H](CCCNC(=N)N)NC(=O)CNC(=O)[C@H](CO)NC(=O)[C@H](CO)NC(=O)[C@H](CCCNC(=N)N)NC(=O)[C@@H](NC(=O)[C@@H](N)[C@@H](C)O)CSSC[C@@H](C(=O)N[C@H](C(=O)O)C(C)C)NC(=O)[C@H](C)NC(=O)[C@H](CC(=O)O)NC(=O)[C@H]([C@@H](C)O)NC1=O`: the figures for the IC50 in assay [1] and in assay [2] were 2100 nM and 2990 nM, respectively.
The like results for `CC[C@H](C)[C@@H]1NC(=O)[C@H](CCCNC(=N)N)NC(=O)[C@H](CCCNC(=N)N)NC(=O)[C@@H](NC(=O)[C@H](Cc2ccc(O)cc2)NC(=O)[C@H](CCCNC(=N)N)NC(=O)[C@H](CCCNC(=N)N)NC(=O)[C@H](CCCNC(=N)N)NC(=O)[C@H](CCCNC(=N)N)NC(=O)[C@H](CC(=O)O)NC(=O)[C@H](Cc2ccc(O)cc2)NC(=O)[C@@H]2CCCN2C(=O)[C@H](CO)NC(=O)[C@H](CCCNC(=N)N)NC(=O)[C@H](CO)NC(=O)[C@H](Cc2ccc(O)cc2)NC(=O)[C@H](CCCNC(=N)N)NC(=O)CNC(=O)[C@H](CO)NC(=O)[C@H](CO)NC(=O)[C@H](CCCNC(=N)N)NC(=O)[C@H](CO)NC(=O)[C@@H](N)[C@@H](C)O)CSSC[C@@H](C(=O)N[C@H](C(=O)O)C(C)C)NC(=O)[C@H](C)NC(=O)[C@H](CC(=O)O)NC(=O)[C@H]([C@@H](C)O)NC1=O` were, in that order, above 10000 nM and 1960 nM.
`CC[C@H](C)[C@H](NC(=O)[C@H](CCCNC(=N)N)NC(=O)[C@H](CCCNC(=N)N)NC(=O)[C@@H]1CSSC[C@H](NC(=O)[C@H](Cc2ccc(O)cc2)NC(=O)[C@H](CCCNC(=N)N)NC(=O)CNC(=O)[C@H](CO)NC(=O)[C@H](CO)NC(=O)[C@H](CCCNC(=N)N)NC(=O)[C@H](CO)NC(=O)[C@@H](N)[C@@H](C)O)C(=O)N[C@@H](CCCNC(=N)N)C(=O)N[C@@H](CO)C(=O)N2CCC[C@H]2C(=O)N[C@@H](Cc2ccc(O)cc2)C(=O)N[C@@H](CC(=O)O)C(=O)N[C@@H](CCCNC(=N)N)C(=O)N[C@@H](CCCNC(=N)N)C(=O)N[C@@H](CCCNC(=N)N)C(=O)N[C@@H](CCCNC(=N)N)C(=O)N[C@@H](Cc2ccc(O)cc2)C(=O)N1)C(=O)N[C@H](C(=O)N[C@@H](CC(=O)O)C(=O)N[C@@H](C)C(=O)N[C@@H](CO)C(=O)N[C@H](C(=O)O)C(C)C)[C@@H](C)O`: the IC50 worked out at 4360 nM in assay [1] and 1450 nM in assay [2].
Consider `CC[C@H](C)[C@H](NC(=O)[C@H](CCCNC(=N)N)NC(=O)[C@H](CCCNC(=N)N)NC(=O)[C@H](C)NC(=O)[C@H](Cc1ccc(O)cc1)NC(=O)[C@H](CCCNC(=N)N)NC(=O)[C@H](CCCNC(=N)N)NC(=O)[C@H](CCCNC(=N)N)NC(=O)[C@H](CCCNC(=N)N)NC(=O)[C@H](CC(=O)O)NC(=O)[C@H](Cc1ccc(O)cc1)NC(=O)[C@@H]1CCCN1C(=O)[C@H](CO)NC(=O)[C@H](CCCNC(=N)N)NC(=O)[C@H](C)NC(=O)[C@H](Cc1ccc(O)cc1)NC(=O)[C@H](CCCNC(=N)N)NC(=O)CNC(=O)[C@H](CO)NC(=O)[C@H](CO)NC(=O)[C@H](CCCNC(=N)N)NC(=O)[C@H](C)NC(=O)[C@@H](N)[C@@H](C)O)C(=O)N[C@H](C(=O)N[C@@H](CC(=O)O)C(=O)N[C@@H](C)C(=O)N[C@@H](C)C(=O)N[C@H](C(=O)O)C(C)C)[C@@H](C)O`, for which the IC50 is above 10000 nM in assay [1] and 2030 nM in assay [2].
As for `CC[C@H](C)[C@@H]1NC(=O)[C@H](CCCNC(=N)N)NC(=O)[C@H](CCCNC(=N)N)NC(=O)[C@H](C)NC(=O)[C@H](Cc2ccc(O)cc2)NC(=O)[C@H](CCCNC(=N)N)NC(=O)[C@H](CCCNC(=N)N)NC(=O)[C@H](CCCNC(=N)N)NC(=O)[C@H](CCCNC(=N)N)NC(=O)[C@H](CC(=O)O)NC(=O)[C@H](Cc2ccc(O)cc2)NC(=O)[C@@H]2CCCN2C(=O)[C@H](CO)NC(=O)[C@H](CCCNC(=N)N)NC(=O)[C@H](C)NC(=O)[C@H](Cc2ccc(O)cc2)NC(=O)[C@H](CCCNC(=N)N)NC(=O)CNC(=O)[C@H](CO)NC(=O)[C@H](CO)NC(=O)[C@H](CCCNC(=N)N)NC(=O)[C@@H](NC(=O)[C@@H](N)[C@@H](C)O)CSSC[C@@H](C(=O)N[C@H](C(=O)O)C(C)C)NC(=O)[C@H](C)NC(=O)[C@H](CC(=O)O)NC(=O)[C@H]([C@@H](C)O)NC1=O`, the IC50 stood at 3780 nM in assay [1] and 700 nM in assay [2].
The like results for `CC[C@H](C)[C@H](NC(=O)[C@H](CCCNC(=N)N)NC(=O)[C@H](CCCNC(=N)N)NC(=O)[C@H](CO)NC(=O)[C@H](Cc1ccc(O)cc1)NC(=O)[C@H](CCCNC(=N)N)NC(=O)[C@H](CCCNC(=N)N)NC(=O)[C@H](CCCNC(=N)N)NC(=O)[C@H](CCCNC(=N)N)NC(=O)[C@H](CC(=O)O)NC(=O)[C@H](Cc1ccc(O)cc1)NC(=O)[C@@H]1CCCN1C(=O)[C@H](CO)NC(=O)[C@H](CCCNC(=N)N)NC(=O)[C@H](C)NC(=O)[C@H](Cc1ccc(O)cc1)NC(=O)[C@H](CCCNC(=N)N)NC(=O)CNC(=O)[C@H](CO)NC(=O)[C@H](CO)NC(=O)[C@H](CCCNC(=N)N)NC(=O)[C@H](C)NC(=O)[C@@H](N)[C@@H](C)O)C(=O)N[C@H](C(=O)N[C@@H](CC(=O)O)C(=O)N[C@@H](C)C(=O)N[C@@H](CO)C(=O)N[C@H](C(=O)O)C(C)C)[C@@H](C)O` were, in that order, above 10000 nM and 2690 nM.

Source of the values: ChEMBL document CHEMBL4376895, “Structure and Activity Studies of Disulfide-Deficient Analogues of αO-Conotoxin GeXIVA” (J Med Chem, 2020).
